Results of unrelated studies side by side (data: NIAID ChemDB).

Shared fields: growth or infection tests; agent: Mycobacterium tuberculosis

An empty or dashed field is not shown. A number after MIC or MFC names an inhibition level or a share of isolates. MIC bound: limit read from a one-dose screen. Lines come from different laboratories, so protocols vary. ECn: concentration that inhibits the pathogen or its effect by n%. Percent inhibition refers to the dose given; in toxicity tests it is the harm to the cells.

SMILES | cell line | strain or isolate | tested at | method | endpoint | value
Cc1cc(=O)oc2c(C)c3oc(CBr)cc3cc12 | - | H37Rv | 6.25 µg/mL | resazurin | inhibition | 2%
COc1ccc(C(=O)Nc2ccc(C(=O)NN3C(=O)CSC3c3ccc(Br)cc3)cc2)cc1 | - | H37Rv | - | - | MIC | >6.25 µg/mL
O=C1NC(Nc2ccc(Cl)cc2)=N/C1=C\c1ccccc1Cl | - | H37Rv | - | - | EC50 | <12.5 µg/mL
CCC(CO)NC[C@H]1N[C@@H](CO)[C@@H](O)[C@@H]1O | - | H37Ra | - | - | MIC | >128 µg/mL
CC1COc2c(N3CCN(C)CC3)c(F)cc3c(=O)c(C(=O)O)cn1c23 | - | - | - | - | MIC90 | 6.25 µg/mL
CC(=O)[C@]1(O)CC[C@@]2(O)[C@]1(C)[C@H](OC(=O)c1ccc(O)cc1)C[C@@H]1[C@@]3(C)CC[C@H](O)CC3=CC[C@]12O | - | H37Rv | 12.5 µg/mL | BACTEC | inhibition | -1%
CC(C)(C)C1CCc2onc(C(=O)Nc3cnn(Cc4ccc5ccccc5c4)c3)c2C1 | - | Rv3602c | - | resazurin | MIC | >128 µM
CN(C)CCCNC1=C(Cl)C(=O)c2ccccc2C1=O | - | H37Rv | 12.5 µg/mL | BACTEC | inhibition | 64%
Cc1cc2oc(=O)c(C(=O)/C=C/c3ccccn3)c(O)c2cc1C | - | H37Rv | - | agar | MIC90 | >6.25 µg/mL
C[C@]1(COc2ccc(N3CCC(COc4ccc(F)cc4)CC3)cc2)Cn2cc([N+](=O)[O-])nc2O1 | - | H37Rv | - | - | MIC | 0.05 µg/mL
CC1(C)S[C@@H]2[C@H](NC(=O)[C@H](N)c3ccc(O)cc3)C(=O)N2[C@H]1C(=O)O | - | H37Rv | - | resazurin | MIC | 512 µg/mL
CCOC(=O)NC1=NC(C(=O)c2ccccc2)CS1 | - | H37Rv | - | - | MIC | 0.4 µg/mL
COc1ccc(C(=O)Nc2ccc(C(=O)NNC(=S)Nc3ccc(C)cc3)cc2)cc1 | - | H37Rv | - | - | MIC | >6.25 µg/mL
CCOC(=O)NC1=NC(C(=O)c2ccc(Cl)cc2)CS1 | - | H37Rv | - | - | MIC | >50 µg/mL
Cn1c2ccccc2c2cc(C=NNc3nc(-c4cccc(Cl)c4)cs3)ccc21 | - | H37Rv | - | fluorescence | MIC | >200 µM
Cc1cc(=O)oc2c(C)c3c(cc12)CC(CI)O3 | - | H37Rv | 12.5 µg/mL | BACTEC | inhibition | 24%
Cc1cc2oc(=O)c(C3=NN(c4ccccc4)C(c4ccc(Cl)cc4Cl)C3)c(O)c2cc1C | - | H37Rv | - | agar | MIC90 | >6.25 µg/mL
C=CCN1C(=O)CS/C1=N\NC(=O)c1ccc(NC(=O)c2ccc(OC)cc2)cc1 | - | H37Rv | 6.25 µg/mL | - | inhibition | 0%
CN(CC(O)C(O)CN(C)C(=S)[S-])C(=S)[S-].[K+].[K+] | - | H37Rv | 12.5 µg/mL | BACTEC | inhibition | 26%
C[C@]1(COc2ccc(N3CCN(C/C=C/c4ccc(Oc5ccccc5)cc4)CC3)cc2)Cn2cc([N+](=O)[O-])nc2O1 | - | H37Rv | - | - | MIC | 0.012 µg/mL
Cc1c(Br)c(=O)oc2c(C)c3c(cc12)CC(CI)O3 | - | H37Rv | 12.5 µg/mL | BACTEC | inhibition | 25%
CC(CCC(=O)NN)C1CCC2C3CCC4CC(O)CCC4(C)C3CCC12C | - | H37Rv | - | BACTEC | MIC bound | >12.5 µg/mL
CCC(CO)NC[C@H]1OC(OC)[C@@H](O)[C@@H]1O | - | H37Ra | - | - | MIC | >128 µg/mL
O=C(Cc1ccc(-c2ccc(C(F)(F)F)cc2)cc1)N[C@@H]1COc2nc([N+](=O)[O-])cn2C1 | - | H37Rv | - | resazurin | MIC | 1 µM
NNC(=O)C1CC2=C(C1)CC(C(=O)NN)C2 | - | H37Rv | 12.5 µg/mL | BACTEC | inhibition | 7%
CC(C)(C)C1CCc2onc(C(=O)Nc3cnn(Cc4ccc(C(=O)O)cc4)c3)c2C1 | - | Rv3602c | - | - | MIC | >128 µM
N=C1OC(CN2CCN(c3ccccc3)CC2)CN1C(=S)Nc1ccccc1 | - | H37Rv | - | resazurin | MIC bound | >6.25 µg/mL
CC(C)(C)C1CCc2onc(C(=O)Nc3cnn(Cc4ccccc4)c3)c2C1 | - | Rv3602c | - | resazurin | MIC | >128 µM
Cn1c2ccccc2c2cc(C=NNc3nc(-c4cc5ccccc5oc4=O)cs3)ccc21 | - | H37Rv | - | fluorescence | EC90 | >25 µM
C[C@]1(COc2ccc(N3CCN(C/C=C/c4ccc(Cl)cc4)CC3)cc2)Cn2cc([N+](=O)[O-])nc2O1 | - | H37Rv | - | - | MIC | 0.012 µg/mL
Cn1c2ccccc2c2cc(C=NNc3nc(-c4cccc([N+](=O)[O-])c4)cs3)ccc21 | - | H37Rv | - | fluorescence | EC50 | >200 µM
CC(=O)Nc1ccc(/C=N/NC(=S)NCC(C)C)cc1 | - | H37Rv | 12.5 µg/mL | BACTEC | inhibition | 4%
CCOC(=O)NC1=NC(C(=O)c2ccc(Br)cc2)CS1 | - | H37Rv | - | - | MIC | >50 µg/mL
CC(C)(C)c1ccc(-c2noc(CN3CCN(c4ccc(OC[C@@]5(C)Cn6cc([N+](=O)[O-])nc6O5)cc4)CC3)n2)cc1 | - | H37Rv | - | - | MIC | 0.024 µg/mL
COC(=O)CCC1=CC(=O)C(OC)=CC1=O | - | H37Rv | - | BACTEC | MIC | 32 µg/mL
CC(C)(C)C1CCc2onc(C(=O)Nc3cnn(Cc4ccc(Cl)cc4)c3)c2C1 | - | Rv3602c | - | resazurin | MIC | >128 µM
CCOC(=O)NC1=NC(C(=O)c2ccc(Cl)c(Cl)c2)CS1 | - | H37Rv | - | - | MIC | >200 µg/mL
CN1c2ccccc2SC1c1cccnc1 | - | H37Rv | - | - | MIC | 50 µg/mL
CCCCCCCCCCCCCCC(F)C(=O)OCC1OC(CO)(OC2OC(CO)C(O)C(O)C2O)C(O)C1O | - | H37Rv | - | BACTEC | MIC bound | >12.5 µg/mL
Cn1c2ccccc2c2cc(C=NNc3nc(-c4ccccc4)cs3)ccc21 | - | H37Rv | - | fluorescence | EC90 | 62 µM
COC(=O)c1coc(CSc2nc(N)c3c4c(sc3n2)CC(C(C)(C)C)CC4)n1 | - | H37Rv | - | MTT / visual reading | MIC | 6.2 µg/mL
C=C1CCCC(C)(C)[C@@H]1CC/C(C)=C/CC/C(C)=C/CO | - | - | 6.25 µg/mL | - | inhibition | 36%
COc1ccc(C(=O)Nc2ccc(C(=O)NN3C(=O)CSC3c3ccc(F)cc3)cc2)cc1 | - | H37Rv | 6.25 µg/mL | - | inhibition | 98%
CC(C)(C)C1CCc2onc(C(=O)Nc3cn[nH]c3)c2C1 | - | Rv3602c | - | - | MIC | >128 µM
Oc1cc2ccc1Oc1ccc(cc1)CCc1ccc(cc1)Oc1ccc(cc1O)CC2 | - | H37Rv | - | resazurin | MIC | 20 µg/mL
C[C@]1(COc2ccc(N3CCN(C/C=C/c4cccc(OC(F)(F)F)c4)CC3)cc2)Cn2cc([N+](=O)[O-])nc2O1 | - | H37Rv | - | - | MIC | 0.012 µg/mL
O=NNc1ccc(Sc2ccc(NN=O)nc2)cc1 | - | H37Rv | - | BACTEC | MIC bound | >12.5 µg/mL
O=C(/C=C/c1ccccn1)c1c(O)c2ccccc2oc1=O | - | H37Rv | - | agar | MIC90 | >6.25 µg/mL
Cn1nnc(-c2ccc(-c3ccc(N4C[C@H](CO)OC4=O)cc3F)cn2)n1 | - | 61 isolates (isoniazid rifampin-susceptible) | - | - | MIC50 | 0.25 µg/mL
COc1ccc2c(c1OC)C(O)N1CCc3cc4c(cc3C1=C2C(=O)c1ccccc1)OCO4 | - | H37Rv | 12.5 µg/mL | BACTEC | inhibition | -10%
CC(C)=CCC1C(=O)C(CC=C(C)C)(CC=C(C)C)C(O)C(C(=O)C(C)C)C1O | - | Isolate M | - | - | MIC | 35.5 µg/mL
COc1ccc(C(=O)Nc2ccc(C(=O)NN3C(=O)CSC3c3ccc([N+](=O)[O-])o3)cc2)cc1 | - | H37Rv | 6.25 µg/mL | - | inhibition | 90%
CC1CN(c2c(F)cc3c(=O)c(C(=O)O)cn(C4CC4)c3c2F)CC(C)N1 | - | CSU15 | - | - | MIC | ≤0.125 µg/mL
Cc1cc2nc3n(c2cc1C)C(c1c(F)cccc1F)SC3 | - | H37Rv | - | BACTEC | MIC bound | >12.5 µg/mL
CCOC(=O)C(C)Sc1nc(N)c2c3c(sc2n1)CC(C(C)(C)C)CC3 | - | H37Rv | - | MTT / visual reading | MIC | 6.2 µg/mL
CN(CCO)C1=CC(=O)C(N2c3ccccc3Nc3cc(O)c(N(C)CCO)cc32)=CC1=O | - | H37Rv | - | BACTEC | MIC bound | >12.5 µg/mL
Cc1cn(C2C=CC(COC(=O)CNC(=O)c3ccncn3)O2)c(=O)[nH]c1=O | - | H37Rv | - | - | EC50 | >6.25 µg/mL
c1ccc2c(c1)NC(c1ccncc1)S2 | - | H37Rv | - | - | MIC | 6.25 µg/mL
O=C1NC(NNC(=O)c2ccncc2)=N/C1=C\c1cccc(Cl)c1 | VERO | H37Rv | - | resazurin | EC50 | <12.5 µg/mL
O=C1Oc2ccccc2[C@@]12[C@H](c1ccccc1)[C@H]1CSCN1[C@]21C(=O)Nc2ccc(Br)cc21 | - | H37Rv | - | agar | MIC | 12.5 µg/mL
O=C(NCCO)C(=O)N/N=C/c1ccc([N+](=O)[O-])o1 | - | INH-r | - | - | MIC | 3.1 µg/mL
C[C@]1(COc2ccc(N3CCC(Cc4ccc(OC(F)(F)F)cc4)CC3)nc2)Cn2cc([N+](=O)[O-])nc2O1 | - | H37Rv | - | - | MIC | 0.006 µg/mL
CC(=O)O[C@]1(C)[C@@H](C)C(=O)O[C@@H]2CCN3CC=C(COC(=O)[C@]1(C)O)[C@H]23 | - | H37Rv | 12.8 µg/mL | BACTEC | inhibition | 7%
CCC(CO)NCC[C@H]1O[C@H](O[C@H]2O[C@H](CCNC(CC)CO)[C@@H](O)[C@H](O)[C@H]2O)[C@H](O)[C@@H](O)[C@@H]1O | - | H37Ra | - | - | MIC | >128 µg/mL
Clc1nc2nsnc2nc1Cl | - | H37Rv | 12.5 µg/mL | BACTEC | inhibition | 21%
CC(C)(C)C1CCc2c(sc3nc(SCc4nccs4)nc(N)c23)C1 | - | H37Rv | - | MTT / visual reading | MIC | 0.39 µg/mL
Cc1c(I)c(=O)oc2c(C)c3c(cc12)CC(CI)O3 | - | H37Rv | 12.5 µg/mL | BACTEC | inhibition | 17%
CC(C)(C)C1CCc2onc(C(=O)Nc3cnn(Cc4ccc(C(=O)NCCc5ccccc5)cc4)c3)c2C1 | - | Rv3602c | - | resazurin | MIC | >128 µM
CC1(C)S[C@@H]2[C@H](NC(=O)COc3ccccc3)C(=O)N2[C@H]1C(=O)O | - | H37Rv | - | resazurin | MIC | 512 µg/mL
O=C1NC(NNC(=O)c2ccncc2)=N/C1=C\c1ccc(Cl)cc1 | - | Ethambutol-resistant | - | - | MIC | 3.13 µg/mL
Cc1cc(=O)c2ccc3c(c2[nH]1)Oc1ccc2c(=O)cc(C)[nH]c2c1O3 | - | H37Rv | - | BACTEC | MIC bound | >12.5 µg/mL
Cn1c2ccccc2c2cc(C=NNc3nc(-c4ccc([N+](=O)[O-])cc4)cs3)ccc21 | - | H37Rv | - | fluorescence | MIC | >200 µM
COc1ccc(C(=O)Nc2ccc(-c3nnc(Nc4ccccc4)o3)cc2)cc1 | - | H37Rv | - | - | MIC | >6.25 µg/mL
Cn1c2ccccc2c2cc(C=NNc3nc(-c4cc5cc(Br)ccc5oc4=O)cs3)ccc21 | - | H37Rv | - | fluorescence | MIC | >200 µM
CCOC(=O)NC1=NC(C(=O)c2ccc(OC)cc2)CS1 | - | H37Rv | - | - | MIC | >50 µg/mL
CC[C@@H](CO)NCCN[C@@H](CC)CO | - | Isolate I | - | - | MIC | >2.5 µg/mL
CC(C)(C)C1CCc2onc(C(=O)Nc3cnn(Cc4ccccc4I)c3)c2C1 | - | Rv3602c | - | - | MIC | >128 µM
NNC(=O)c1cccnc1 | - | H37Rv | - | BACTEC | MIC bound | >12.5 µg/mL
C[C@]1(COc2ccc(N3CCN(Cc4cc5cc(C(F)(F)F)ccc5o4)CC3)cc2)Cn2cc([N+](=O)[O-])nc2O1 | - | H37Rv | - | - | MIC | 0.012 µg/mL
CN1CCN(CNC(=O)c2cnccn2)CC1 | - | MS6210 | - | - | MIC | 100 µg/mL
CCC(CO)NC[C@H]1O[C@H](CO)[C@@H](O)[C@@H]1O | - | H37Ra | - | - | MIC | >128 µg/mL
Nc1nc(NCc2ccccc2)cc(=O)[nH]1 | - | H37Rv | - | BACTEC | MIC bound | >12.5 µg/mL
COC(=O)NC1=NC(C(=O)c2ccc(Br)cc2)CS1 | - | H37Rv | - | - | MIC | >50 µg/mL
Cc1ccc2c(c1)NC(c1cccnc1)S2 | - | H37Rv | - | - | MIC | 3.1 µg/mL
O=C1NC(NNC(=O)c2ccncc2)=N/C1=C\c1ccccc1Cl | - | Ciprofloxacin-resistant | - | - | MIC | ≤1.56 µg/mL
C[C@]1(COc2ccc(N3CCN(C/C=C/c4ccccc4OC(F)(F)F)CC3)cc2)Cn2cc([N+](=O)[O-])nc2O1 | - | H37Rv | - | - | MIC | 0.024 µg/mL

The last 4 rows once more:

SMILES | cell line | strain or isolate | tested at | method | endpoint | value
COC(=O)NC1=NC(C(=O)c2ccc(Br)cc2)CS1 | - | H37Rv | - | - | MIC | >50 µg/mL
Cc1ccc2c(c1)NC(c1cccnc1)S2 | - | H37Rv | - | - | MIC | 3.1 µg/mL
O=C1NC(NNC(=O)c2ccncc2)=N/C1=C\c1ccccc1Cl | - | Ciprofloxacin-resistant | - | - | MIC | ≤1.56 µg/mL
C[C@]1(COc2ccc(N3CCN(C/C=C/c4ccccc4OC(F)(F)F)CC3)cc2)Cn2cc([N+](=O)[O-])nc2O1 | - | H37Rv | - | - | MIC | 0.024 µg/mL